{"source": "patent US20250099433A1", "about": "“COMPOSITION AND METHOD FOR TREATMENT OF GRAM NEGATIVE BACTERIAL INFECTION” (The Research Foundation for the State University of New York, priority 2021, published 2025)", "key": {"P. aeruginosa PAO1 [1]": {"system": "P. aeruginosa PAO1", "settings": "Walkup 2015; cited from earlier work"}, "[2]": {"system": "efflux-pump mutant strain (ΔMexABCDXY) (paEP)", "settings": "Walkup 2015; cited from earlier work"}, "[3]": {"system": "P. aeruginosa and Klebsiella pneumonia infection", "settings": "cited from earlier work"}, "P. aeruginosa PAO1 [4]": {"system": "P. aeruginosa PAO1", "test": "MIC by microbroth dilution, P. aeruginosa PAO1", "settings": "wild-type P. aeruginosa PAO1"}}}
{"smiles": "COc1ccc(-c2ccn(CC[C@](C)(C(=O)NO)S(C)(=O)=O)c(=O)c2)c(F)c1", "values": [{"measurement": "MIC PAO1", "setting": "P. aeruginosa PAO1 [1]", "value": 0.6, "unit": "µM"}, {"measurement": "MIC pump mutant", "setting": "[2]", "value": 0.018, "unit": "µM"}, {"measurement": "in vivo antibacterial activity in animal models", "setting": "[3]", "value": "in vivo antibacterial activity"}, {"measurement": "MIC (μM) (PAO1)", "setting": "P. aeruginosa PAO1 [4]", "value": 0.625, "unit": "µM"}]}
